Compound potency records, mixed from different reports. Data source: NIAID ChemDB in PubChem.

Shared fields: tests in culture; agent: Herpes simplex virus 2; read-out: EC50

ECn is the concentration giving n% inhibition of infection, replication or growth. Conditions beyond the fields shown may differ between rows. Blank or dashed fields: not listed here.

structure	cell line	read by	strain	value
Nc1nccc2c1ncn2[C@@H]1O[C@H](CO)[C@@H](O)[C@H]1O	PRK	cytopathic effect	LYONS G 196	≥40 µg/mL
Cc1cn([C@@H]2O[C@H](CO)C[C@@H]2O)c(=O)[nH]c1=O	HEL	plaque count		>1322 µM
Cc1cccc2c1OP(=O)(OC[C@@H]1C=C[C@H](n3cnc4c(NC5CC5)nc(N)nc43)C1)OC2	E6SM	cytopathic effect	G	5.6 µg/mL
Nc1nc(N)c2ncn(CCOCP(=O)(O)O)c2n1	HEL	cytopathic effect	HS-44	7.3 µg/mL
O=c1[nH]c(=O)n([C@@H]2O[C@H](CO)[C@@H](O)[C@H]2O)cc1/C=C/Br	HEL	plaque count		>917 µM
NC(=O)c1cn(-c2ccc(F)cc2)c2cc(-c3cc[n+]([O-])cc3)ccc2c1=O	VERO	plaque count		>12.5 µg/mL
Nc1ncnc2ncn(COCCCl)c12	VERO	cytopathic effect	G	>128 µg/mL
O=c1[nH]cnc2c1ncn2CC(CO)OCP(=O)(O)O	Primary rabbit kidney cells	cytopathic effect	3 strains	>400 µg/mL
O=c1[nH]c(=O)n([C@@H]2O[C@H](CO)[C@@H](O)[C@@H]2O)cc1/C=C/I	HEL	plaque count		96 µM
Cc1cn([C@H]2C[C@@H](O)[C@H](CO)O2)c(=O)[nH]c1=O	VERO B	cytopathic effect	G	>1000 µM
O=c1c2ccccc2[nH]c2cc(O)cc(O)c12	HEF	plaque count		7.3 µg/mL
O=c1[nH]c(=O)n([C@H]2C[C@H](O)[C@@H](COP3(=O)OCc4cc(Cl)ccc4O3)O2)cc1/C=C/Br	VERO	plaque count	G (TK+)	>128 µg/mL
CCn1cc(C2=NCCO2)c(=O)c2ccc(-c3ccncc3)cc21	VERO	plaque count		>12.5 µg/mL
COc1cc(O)c2c(=O)c3ccc(OC)c(O)c3n(C)c2c1	HEF	plaque count		>20 µg/mL
COC(=O)[C@H](C)NP(=O)(OC[C@H]1C/C1=C\n1cnc2c(N)nc(N)nc21)Oc1ccccc1	VERO	plaque count		>100 µM
COc1cc(O)c(CC=C(C)C)c(O)c1C(=O)/C=C/c1ccc(O)cc1	VERO	cytopathic effect		1.5 µg/mL
COc1ccc2c(c1)COP(=O)(OC[C@H]1O[C@@H](n3cc(/C=C/Br)c(=O)[nH]c3=O)C[C@@H]1O)O2	VERO	plaque count	G (TK+)	>128 µg/mL
Nc1ncnc2c1ccn2[C@@H]1O[C@H](CO)C[C@H]1O	PRK	cytopathic effect	G	≥10 µg/mL
COc1ccc2c(=O)c3c(O)cc4c(c3n(C)c2c1OC)C=CC(C)(C)O4	HEF	plaque count		>20 µg/mL
Nc1nc2c(ncn2COCCO)c(=O)[nH]1	VERO	plaque count	G	9 µM
Nc1nc2c(ncn2[C@H]2C[C@@H](O)[C@H](CO)O2)c(=O)[nH]1	VERO B	cytopathic effect	G	>1000 µM
Nc1nc2c(ncn2CCC(CO)CO)c(=O)[nH]1	HEL	cytopathic effect	ACV-resistant	9 µg/mL
NC(=O)c1cn(-c2ccc(F)cc2)c2cc(Br)ccc2c1=O	VERO	plaque count		>6.25 µg/mL
Nc1nc(NC2CC2)c2ncn([C@H]3C=C[C@@H](CO)C3)c2n1	E6SM	cytopathic effect	G	≥40 µg/mL
CCn1cc(C(N)=O)c(=O)c2ccc(I)cc21	VERO	plaque count		>100 µg/mL
Nc1nc2c(ncn2[C@@H]2O[C@@H](CO)[C@H](O)[C@H]2O)c(=O)[nH]1	VERO B	cytopathic effect	G	>1000 µM
Cc1cccc2c1OP(=O)(OC[C@H]1O[C@@H](n3cc(/C=C/Br)c(=O)[nH]c3=O)C[C@@H]1OC(=O)[C@H](N)Cc1ccccc1)OC2	VERO	plaque count	G (TK+)	>128 µg/mL
NC(=O)c1cn([C@@H]2O[C@H](CO)[C@@H](O)[C@@H]2O)c2ncnc(N)c12	PRK	cytopathic effect	G	1 µg/mL
CCCCCC(=O)O[C@H]1C[C@H](n2cc(/C=C/Br)c(=O)[nH]c2=O)O[C@@H]1COP1(=O)OCc2cccc(C)c2O1	VERO	plaque count	G (TK+)	>128 µg/mL
Nc1nc(=O)n([C@@H]2O[C@H](CO)[C@@H](O)[C@@H]2F)cc1I	HEL	cytopathic effect	HS-44	7.5 µg/mL
O=c1[nH]c(=O)n([C@H]2C[C@H](O)[C@@H](COP3(=O)OCc4cc(-c5ccccc5)ccc4O3)O2)cc1/C=C/Br	VERO	plaque count	G (TK+)	>128 µg/mL
CCCCCc1c2c(c3c(c1O)c(=O)c1cccc(O)c1n3C)C=CC(C)(C)O2	HEF	plaque count		2 µg/mL
Nc1ncnc2c1ncn2C[C@@H](CO)OCP(=O)(O)O	HEL	cytopathic effect	PCV-resistant/A	0.062 µg/mL
Cc1cccc2c1OP(=O)(OC[C@H]1O[C@@H](n3cc(/C=C/Br)c(=O)[nH]c3=O)C[C@@H]1OC(=O)C(C)C)OC2	VERO	plaque count	G (TK+)	>128 µg/mL
CCCCCc1c2c(c3[nH]c4c(O)cccc4c(=O)c3c1O)C=CC(C)(C)O2	HEF	plaque count		0.82 µg/mL
COc1nc(N)nc2c1ncn2C=C1CC1CO	VERO	plaque count		>50 µM
Nc1ncnc2c1ccn2[C@@H]1O[C@H](CO)[C@@H](O)[C@@H]1O	PRK	cytopathic effect	G	40 µg/mL
C[C@H](COc1cc(N)nc(N)n1)OCP(=O)(O)O		cytopathic effect	G	17 µM
CC[C@H](C)[C@H](N)C(=O)O[C@H]1C[C@H](n2cc(/C=C/Br)c(=O)[nH]c2=O)O[C@@H]1COP1(=O)OCc2cccc(C)c2O1	VERO	plaque count	G (TK+)	>128 µg/mL
COc1c(O)ccc2c(=O)c3c(O)cc(O)cc3n(C)c12	HEF	plaque count		>20 µg/mL
Cc1cn([C@@H]2O[C@H](CO)[C@@H](O)[C@@H]2F)c(=O)[nH]c1=O	HEL	plaque count		0.162 µM
Nc1ncnc2c1ncn2C[C@@H](CO)OCP(=O)(O)O		cytopathic effect	G	13 µM
Cc1cccc2c1OP(=O)(OC[C@H]1O[C@@H](n3cc(/C=C/Br)c(=O)[nH]c3=O)C[C@@H]1OC(=O)[C@@H]1CCCN1)OC2	VERO	plaque count	G (TK+)	>128 µg/mL
CCn1cc2c(=O)ncnc-2c2ccc(-c3ccncc3)cc21	VERO	plaque count		>100 µg/mL
Nc1ncc2ncn(CCOCP(=O)(O)O)c2n1	Primary rabbit kidney cells	cytopathic effect	3 strains	10 µg/mL
CCCC[CH2][Sn]([Cl])([Cl])[CH2]CCCC	HFF	plaque count	MS	<1 µg/mL
Nc1nc2c(ncn2CCC(CO)CO)c(=O)[nH]1	HEL	cytopathic effect	HS-47	0.35 µg/mL
CCCCCC[CH2][Sn]([Cl])([Cl])[CH2]CCCCCC	HFF	plaque count	MS	17 µg/mL
NC(=O)c1c[nH]c2cc(-c3ccncc3)ccc2c1=O	VERO	plaque count		>12.5 µg/mL
CC#Cc1cn([C@@H]2O[C@H](CO)[C@@H](O)[C@@H]2O)c(=O)[nH]c1=O	HEL	plaque count		>1135 µM
Nc1nc(NC2CC2)c2ncn(C=C3CC3CO)c2n1	VERO	plaque count		41 µM
O=c1[nH]cnc2c1ncn2CCOCP(=O)(O)O	Primary rabbit kidney cells	cytopathic effect	3 strains	>400 µg/mL
O=c1ccn([C@@H]2O[C@@H](CO)[C@H](O)[C@H]2O)c(=O)[nH]1	VERO B	cytopathic effect	G	>1000 µM
COc1cc(O)c2c(=O)c3cccc(O)c3n(C)c2c1OC	HEF	plaque count		0.74 µg/mL
Nc1cc(OCCOCP(=O)(O)O)nc(N)n1		cytopathic effect	G	91 µM
Cc1cn([C@@H]2O[C@H](CO)[C@@H](O)[C@@H]2O)c(=O)[nH]c1=O	HEL	cytopathic effect	HS-44	>20 µg/mL
Cc1cccc2c1OP(=O)(OCCOCn1cnc3c(=O)[nH]c(N)nc31)OC2	E6SM	cytopathic effect	G	0.26 µg/mL
Nc1ncnc2c1ccn2[C@@H]1O[C@H](CO)[C@H](O)[C@H]1O	PRK	cytopathic effect	LYONS	0.3 µg/mL
Cc1ccc2c(c1)COP(=O)(OCCOCn1cnc3c(=O)[nH]c(N)nc31)O2	E6SM	cytopathic effect	G	0.26 µg/mL
Nc1nc2c(ncn2COC(CO)CO)c(=O)[nH]1	HEL	cytopathic effect	PCV-resistant/B	0.08 µg/mL
Cc1cccc2c1OP(=O)(OC[C@H]1O[C@@H](n3cc(/C=C/Br)c(=O)[nH]c3=O)C[C@@H]1OC(=O)[C@H](N)C(C)C)OC2	VERO	plaque count	G (TK+)	>128 µg/mL
CCn1cc(C(N)=O)c(=O)c2ccc(-c3ccc(N)cc3)cc21	VERO	plaque count		>6.25 µg/mL
COc1cc(O)c2c(=O)c3ccc(O)c(OC)c3n(C)c2c1	HEF	plaque count		0.59 µg/mL
Nc1ncnc2c1ncn2C[C@@H](CO)OCP(=O)(O)O	Primary rabbit kidney cells	cytopathic effect	3 strains	4 µg/mL
O=C(O)P(=O)(O)O	HEL	cytopathic effect	PCV-resistant/A	16 µg/mL
[Cl][Sn]([c]1ccccc1)([c]1ccccc1)[c]1ccccc1	HFF	plaque count	MS	<1 µg/mL
COC(=O)[C@H](C)NP(=O)(OC[C@H]1C/C1=C\n1cnc2c(=O)[nH]c(N)nc21)Oc1ccccc1	VERO	plaque count		>100 µM
Nc1nc(NC2CC2)c2ncn([C@H]3C=C[C@@H](COP4(=O)OCc5cc(Cl)ccc5O4)C3)c2n1	E6SM	cytopathic effect	G	24 µg/mL
[CH3][Sn]([CH3])([Br])[Br].c1ccc(-c2nc3ccccc3[nH]2)nc1	HFF	plaque count	MS	56 µg/mL